## Primary screen of a compound library

Source: ChEMBL document CHEMBL3988442, “University of Dundee, Small-Polar-MMV Screening Library” (2021).

Mtb glucose medium: 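Growth of Mycobacterium tuberculosis over 3 days (7H9 medium with glucose and tyloxapol); the read-out is not stated. Tested at 50 µM. The record gives no direction; compounds that gave an IC50 in retests scored well above the rest, so higher reads as more growth inhibition. Size under these conditions: about 69,000 compounds, about 760 of them at 50% or above in at least one test.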
Mtb cholesterol medium: 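Growth of Mycobacterium tuberculosis over 4 days (cholesterol / DPPC medium with tyloxapol); the read-out is not stated. Tested at 50 µM. Higher reads as more growth inhibition (inferred: compounds with an IC50 in retests scored well above the rest). Of about 69,000 compounds tested this way, about 370 (0.54%) reached 50% or more in at least one test.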

The filed quantity is “Percent Effect” (%).
The record does not define 0% and 100%; most values in the screen are far below 50% and negative numbers occur (in some assays of this library far below -100).
This is part of a subset picked to be rich in strong results.
Two or more numbers in one place are separate tests of the same structure; such repeats can differ widely.
A dash means the value is not listed here; it may have been measured.

SMILES	Mtb glucose medium	Mtb cholesterol medium
CC/C=C(/C)C(=O)NS(=O)(=O)c1ccc(C#N)c(C(F)(F)F)c1	-15.64	-
Cc1ccc(OC(C)CNC(=O)c2c[nH]nn2)cc1 (centres unmarked)	3.643	0.6963 & -2.592
O=C(Cc1ccc2c(c1)OCCO2)NC1CC1	-12.15	-10.5
CN(C)c1ccc(C(=O)NCCCc2ccccn2)cn1	4.638	-
N[C@H]1CN(S(=O)(=O)c2ccccc2)C[C@@H]1C1CC1	30.68	4.908
COc1ccc(C2CCCN2c2cnccn2)c(OC)c1 (centres unmarked)	-28.54	-
CCOc1cc(C(=O)n2cc(C)cn2)cc(OCC)c1OCC	53.32 & 7.731	-
N#Cc1ccc(N2CCCN(CC(=O)N3CCC3)CC2)cc1	3.936	-
Cc1cnn(-c2cccc(N3CCCCC3)n2)c1	-	-5.993
Cc1cc(C)n(C2CCCN(C(=O)Cc3cccc(F)c3)C2)n1 (centres unmarked)	-1.949	-
CCOC(=O)Cn1nnnc1-c1ccccc1	0.1505	-
CCc1cc(C(=O)N2CCC(c3cc4ncccc4cn3)CC2)no1	-34.91	-32.83
Cc1ccc(C(=O)NCCCNc2ccc(C(F)(F)F)cn2)cc1	3.672	-
COc1ccnc(N2CCN(Cc3nc(-c4ccoc4)no3)CC2)c1	-	12.28
COc1ccc(CCNC(=O)C(C)Nc2ccc(C)c(C)c2)cc1 (centres unmarked)	-	-6.44
NC(=O)C1CCN(C(=O)NC2CCc3cc(F)ccc32)CC1 (centres unmarked)	-17.57	-
COc1ccc(OC)c(CNc2nnc(C(C)(C)C)o2)c1	6.882	9.662
CCCNC(=O)c1ccc2c(OC)n(C)nc2c1	4.165 & 35.41	-
CCC(C)NC(=O)c1ccn(COc2ccccc2Cl)n1 (centres unmarked)	-1.059	-3.488
CN(C)CCN1CCC(CNCc2c[nH]nc2C(C)(C)C)CC1	-39.65	-43.85
COc1ccc(C[C@H]2CN(c3cc(OC)ncn3)CC[C@@H]2OC)cc1.O=C(O)C(F)(F)F	26.59 & 31.79	4.167
CCn1ccnc1CN(C)Cc1nc(Cc2cccc(F)c2)no1	-	-3.052
CN(C)S(=O)(=O)N1CCC(Oc2cccnn2)CC1	-0.1369	-8.594
COCCN(C)Cc1cc(Cl)ccc1OCC(O)CN1CCCCCC1 (centres unmarked)	14.67	51.22
Cl.O=c1c2sccc2nc2n1CCN(Cc1ccc(F)c(F)c1)CC2	55.36	58.12
Cc1ccc(N(CC(=O)N2CCCCC2)C(=O)C2CCCO2)cc1 (centres unmarked)	0.5843	-1.728 & -1.361
O=C(NC1CC1)N1CCN(c2cnccn2)CC1	-77.58 & -2.009	-
COc1cccnc1-c1ccc(F)c2c1OC(CN)C2 (centres unmarked)	-	-2.068
COCCCNC(=O)Cc1cc(-c2ccccc2)on1	22.42	-5.936
CCS(=O)(=O)CCNc1nc(C2CCCC2)nc2c1cnn2C	5.046	-4.161 & -12.86
COc1cc(-c2cccc3c2OC(CN)C3)cc(OC)c1OC (centres unmarked)	53.73 & 45.51	-
Oc1nc(N2CCCC2)nc2c1CCN(Cc1ccsc1)CC2	-5.78	11.27
O=C(NC[C@@H]1CCCO1)c1cc(Br)cnc1N1CCCCC1	-19.13	-
O=C(NCC(F)(F)F)C1CN(C(=O)c2cnccn2)C1	-1.613 & 68.13	-
CC(=O)c1c(F)cccc1N1CCC(C(N)=O)CC1	-5.258	-12.57 & -6.205
Fc1cccc(OC2CCN(CCn3cc4ccccc4n3)CC2)c1	60.47	48.85
CCc1ccc(C(=O)NCCCC2(C3OCCO3)CCOCC2)cc1	4.086 & 29.47	-
CCNC(c1ccc(C)cc1)c1cccnc1 (centres unmarked)	13.7	-
CSCC(CCO)Nc1cccc(C(F)(F)F)n1 (centres unmarked)	23.42	-
O[C@@H]1CN(c2cnc3ccccc3n2)CC[C@H]1c1ccc2c(c1)OCO2	81.52	80.2
Cc1nc(CCN)cc(N2CCC(O)(c3ccc(Cl)cc3)CC2)n1	56.5	-
Cl.c1ccc(CCNc2cccc(C3CCCNC3)n2)cc1 (centres unmarked)	10.26	8.525
COCCN(C)C(=O)Cn1cccc(OC)c1=O	-	-26.81
Fc1ccccc1CC1CCN(Cc2ccccn2)CC1	-	16.5
CC(C)CCN1CCNC(=O)C1CC(=O)NCCc1cc(O)ncn1 (centres unmarked)	77.43 & 0.4058	-
CCc1c(C)sc2ncnc(N3CC[C@@H](N4CCC(O)CC4)[C@H](O)C3)c12	13.15	-
Cc1nsc(C(=O)NCCc2ccccc2)n1	54.04	54.94
Clc1cccc(CNC2CCN(CCc3ccncc3)CC2)c1	-7.1	-8.966
CC(CNS(N)(=O)=O)Oc1cccc(Cl)c1 (centres unmarked)	-7.851	-
COCCNC(=O)Nc1cccc(COCCOC(C)C)c1	-0.4188 & 10.95	-
CNCCCNc1nc(C2CCCC2)nc2c1cnn2C	-3.649	-2.748 & -4.28
CCCNC(=O)c1cc(C(C)C)nc(N2CCCC2)n1	93.74	-
CC1(C)CCC(C(=O)O)c2ccccc21 (centres unmarked)	-	-14.57
Cc1ccc(NC(=O)NCC2CCS(=O)(=O)C2)cc1Cl (centres unmarked)	14.05	-17.81 & -2.976
CN1CCC(N(C)CCC(=O)N2CCC(Oc3ccc(Cl)cc3)CC2)C1 (centres unmarked)	43.27	-
CN(Cc1ccco1)C(=O)CN1CCc2ccccc2C1	21.26	5.211
CN1CCN(C(=O)c2csnn2)c2ccccc21	-5.991 & -3.991	-
O=C(COCc1ccccc1)N1CCCC(n2cncn2)C1 (centres unmarked)	-15.36	-
CC(C)c1cc(C(=O)N2CCN(Cc3ccc(C#N)cc3)CC2)n[nH]1	22.34 & 5.652	-
Cc1noc(C)c1NC(=O)Cn1cc(Br)ccc1=O	-15.87 & 2.299	-
O=C(c1cccs1)N1CCC2(CC1)CN(c1ccsc1)C(=O)CO2	-	-6.713 & 83.76
[H][C@]12CCCCN1CCC[C@H]2CN(C)Cc1nnc(CC)o1	33.66	-
Cc1ccccc1-c1cc(C(=O)N2CCn3c(C)nnc3C2)[nH]n1	20.44	-
CC(c1nc(-c2ccccc2)no1)N1CC(n2cccn2)C1 (centres unmarked)	15.76 & 2.241	-
COc1ccc(COCC(O)CNC(=O)c2cc(C)no2)cc1 (centres unmarked)	0.1555	-
COc1ccc(C(=O)NCCCNc2ncccn2)cc1F	-2.613	4.414
O=C(NCCNc1ccc(C(F)(F)F)cn1)c1ccc(Br)cc1	36.76	28.9
Cc1cc2c(cc1CNC(Cc1cccs1)c1nccs1)OCO2.Cl (centres unmarked)	9.871	14.15 & 59.95
Cc1nc(-n2nc(C3CC3)cc2NC(=O)C(C)C)[nH]c(=O)c1C	61.68	-
CN(C)CCNC(=O)c1ccn(-c2ccc3ccccn23)n1.O=C(O)C(F)(F)F	60.45	-
Clc1cccnc1N1CCC(C2CCN(Cc3cccnc3)CC2)C1 (centres unmarked)	8.898	-
O=C(NCCSC1CCCC1)c1cc(C2CC2)on1	19.07	-
O=C(Nc1nc[nH]n1)c1cc(-c2ccc(F)cc2)n[nH]1	-12.94	-3.316

6 of the entries, repeated:

For COc1ccc(C(=O)NCCCNc2ncccn2)cc1F the result was Mtb glucose medium: -2.613%; Mtb cholesterol medium: 4.414%.
For Cc1ccc(N(CC(=O)N2CCCCC2)C(=O)C2CCCO2)cc1 (centres unmarked) the result was Mtb glucose medium: 0.5843%; Mtb cholesterol medium: -1.728% & -1.361%.
For CN(C)S(=O)(=O)N1CCC(Oc2cccnn2)CC1 the result was Mtb glucose medium: -0.1369%; Mtb cholesterol medium: -8.594%.
For CN(C)c1ccc(C(=O)NCCCc2ccccn2)cn1 the result was Mtb glucose medium: 4.638%.
For CC(C)CCN1CCNC(=O)C1CC(=O)NCCc1cc(O)ncn1 (centres unmarked) the result was Mtb glucose medium: 77.43% & 0.4058%.
For O[C@@H]1CN(c2cnc3ccccc3n2)CC[C@H]1c1ccc2c(c1)OCO2 the result was Mtb glucose medium: 81.52%; Mtb cholesterol medium: 80.2%.